Results: the supplement of paper PMC9931576
Human monoclonal antibodies against the spike receptor-binding domain (heavy:light variable regions). IC50 against pseudoviruses bearing the spike of naturally observed variants; lower = stronger; >10 µg/ml means not reached at the top dose. No active / inactive call. The stated detection limit is 0.0005 µg/ml; values near or below 0.001 µg/ml lie at the floor of the assay.

B1: BD57-0412 (protein)
chain 1: QITLKESGPTLVKPTRTLTLTCTFSGFSLTTSGVGVGWIRQPPGKALEWLALIYWDGDERYSPSLKSRLTITKDTSKNQVVLTMTNMGPVDTATYYCGHHTIPTIFDYWGQGTLVTVSS
chain 2: QSALTQPASVSGSPGQSITISCTGAYSDVGAYNYVSWYQQHPGKAPKLVIYDVTNRPSGVSDRFSGSKSGYTASLTISGLQAEDEADYYCSSYTTSSLLVFGGGTKLTVL
B2: BD55-3327 (protein)
chain 1: QVQLVESGGGVVQPGRSLRLSCAASGFTFSSYGMFWVRQAPGKGLEWVATVWFDGSSEYYADSVKGRFTISRDNSKKTLYLQMSSLRVEDTAVYYCARERTYYYGAQGGEFGGLDVWGHGTTVTVSS
chain 2: EIVLTQSPGTLSLSPGERATLSCRASQSVSSSYLAWYQQKPGQAPRLLIYDASSRATGIPDRFSGSGSGTDFTLTISRLEPEDFAVYYCQQYSSSWTFGQGTKVEIK
B3: BD55-3149 (protein)
chain 1: QVRLVESGGGVVQPGRSLRLSCATSGFSFSTYAMHWVRQAPGKGLEWLAVVSFDGRNKYHADSVKGRFTVSRDNSKNTLYLQMMSLRPEDTAVYYCAKEVNYGSGSYENEGRLDYWGQGTLVTVSS
chain 2: DIQMTQSPSSLSASVGDRVTITCRASQTITKYLNWYQQKPGKAPKLLIFATSTLETGVPSRFSGSGSGTDFTLTITNLQPEDFATYYCQETHSLPWTFGQGTKVEI
B4: DH1117 (protein)
chain 1: EVQLVESGGGLVQPGGFLRLSCSASGFSFRTYSMHWVRQAPGKGLEHVSAISRNGDITYYADSMEGRFTISRDNSKNTLYLQMSSLRPEDTAVYYCVKDKVTTIFDVFDLWGQGTMVTVSS
chain 2: DIQMTQSPASLSASVGDRVTITCRASQSVNIYLNWYQQKPGKAPTLLIHGASSLQTGVPSRFSGSGSGTDFTLTISSLQPEDFATYYCQQSYSPPRTFGQGTKVEIR
B5: BD-500 (protein)
chain 1: EVQLVESGGGLIQPGGSLRLSCAASGLTVSSNYMTWVRQAPGKGLEWVSVIYSGGSTFYADSVKGRFTISRHNSKNTLYLQMNSLRAEDTAVYYCARDAMSYGMDVWGQGTTVTVSS
chain 2: DIQMTQSPSSLSASVGDRVTITCRASQSISNFLNWYQQKPGKAPKLLIYAASSLQSGVPSRFSGSGSGTGFTLTISSLQPEDFATYYCQQSYSTPPDTFGQGTRLEIK
B6: BD55-3370 (protein)
chain 1: QVQLQESGPGLVKPSETLSLTCTVSGGSMTIYHWSWIRQPPGKALEWIGYIFYTGDTNYNPSLKSRVTMSVDTSKNQFSLGLSSVTAADTAVYYCARGSSGWYKGGSYLYFMDVWGQGTTVTVSS
chain 2: DIQMTQSPSTLSASVGDRVTITCRASQTISAWLAWYQQKPGKAPKLLIYGASSLESGVPSRFSGSGSGTEFTLTISSLQSDDFATYYCQQYDTSPLTFGGGTKVEIK
B7: BD55-2314 (protein)
chain 1: QIQLVQSGVELKKPGASVKVSCKASGYTFLSYGISWVRQAPGQGLEWMGWFSGDNGDTQYAQNFQGRVTMTADTSTSTAYMEMRSLRTDDTAVYYCASRRFGELTLEFWGQGTLVTVSS
chain 2: EVVLTQSPATLSVSPGERATLSCRASQSVSTYLAWYQQKPGQAPRLLIYDASTRAASTPTRFSGSGSGTEFTLTISSLQSEDLALYHCQQYSDWPSNTFGQGTKLEIK
B8: BD55-3457 (protein)
chain 1: QVQLVQSGSELKKPGASVKVSCKASGYTFTSSAVHWVRQARGQGLEWMGWINTDTATPTYAQAFTGRFLFSLDTSVSTAYLQISSLKAEDTAVYYCARDRDLYERAFDVWGQGTRVNVSS
chain 2: EIVMTQSPATLSVSPGERAILSCRASQSVGSNFAWYQQKPGQAPRLLIFGASTRATGIPVRFSGSGSGTEFTLTISSLQSEDFAVYYCQQYNYWPLTFGGGTKVEIK
B9: BD55-3300 (protein)
chain 1: EVQLLESGGGLVQPGGSLRLSCAVSGFMFSRYAMTWGRQAPGKGLEWVASSGGYGGDTYYADSVKGRFTISRDNSKNTLFLQMNSLRAEDTAVYYCAKGSRSNPDYFESWGQGTLVTVSS
chain 2: DIQMTQSPSTLSASVGDRVTITCRASQSITNWLAWYQQKPGKAPKLLIYDVSILESGVPSRFSGSGSGTEFTLTISSLQPDDFATYYCQQYNSYSPLTFGGGTKVEIK
B10: BD55-3440 (protein)
chain 1: QVQLVQSGAEVKKPGSSVKVSCKASGDTFSSFAINWVRQAPGQGLEWIGRITPVLNIPHYAQRFQGRVTITADKSTSTAYMELSSLRSDDTAVYYCARVVLSKYQPPRGYYYYAMDVWGQGTTVTVSS
chain 2: SYELTQPPSVSVSPGQTATITCSGDALPKEYAYWYQKKPGQAPVLVMSKDSERPSGIPERFSGSSSGTTVTLTISGVQAEDEADYYCQSADIGGPSVIFAGGTKLTVL
B11: BD55-3304 (protein)
chain 1: QVQLVESGGGVVQPERSLRLSCAASGFIFSNYGMHWVRQAPGKGLEWVALIWYDGSNRYYADSVKGRFTISRDNSRNTLYLQMNSLRAEDTAMYYCAKSALRGYSGYDFFSRVSDEYYFDNWGQGTLVTVSS
chain 2: DIVMTQSPDSLAVSLGERATISCKSSQSVLYSSNNQNYLAWYQQKPGQPPKLLIKWASTRESGVPDRFSGSGSGTDFTLTITSLQAEDVAVYYCQQYFDTPHFGQGTKLEIK
B12: DH1088 (protein)
chain 1: EVQLVESGGGLVQPGRSLRLSCVASGFSPGDYAMHWVRQAPGKGLEWVSGISWNSVSIDYADSVKGRFTISRDNAKNSLYLQMNSLRPEDTALYYCARGGFKSGFYIHGMDVWGQGTTVTVSS
chain 2: QSALTQPASVSGSPGQSITISCTGTSSDIGDYDYVSWYQQHPGKAPKLLIYDVTYRPSGVSNLFSGSKSGNTASLTISGLQAEDEAVYYCSSYTTSNTLVFGGGTKLTVL

What follows are binders tested against SARS-CoV-2 Omicron BA.1 spike pseudovirus (assay: pseudovirus neutralization IC50; higher = weaker neutralization).
Procedure: (§1)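 Single-round VSV luciferase pseudovirus mixed with antibody dilutions for 1 h and put on Huh-7 cells for about a day; IC50 from the dose curve.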

Row | Binder | pseudovirus neutralization IC50 [µg/mL]
1 | B1 | 2.85
2 | B2 | 9.48
3 | B3 | > 10
4 | B4 | > 10
5 | B5 | > 10
6 | B6 | 6.39
7 | B7 | > 10
8 | B8 | 3.19
9 | B9 | 4.56
10 | B10 | > 10
11 | B11 | > 10
12 | B12 | > 10

The binders below were run against SARS-CoV-2 Omicron BA.2 spike pseudovirus in the same assay as above.
Procedure: as §1

Row | Binder | pseudovirus neutralization IC50 [µg/mL]
13 | B1 | 0.00482
14 | B2 | 8.53
15 | B3 | > 10
16 | B4 | > 10
17 | B5 | > 10
18 | B6 | 7.52
19 | B7 | > 10
20 | B8 | > 10
21 | B9 | 3.56
22 | B10 | 5.04
23 | B11 | > 10
24 | B12 | > 10

Each binder was assayed against SARS-CoV-2 Omicron BA.2.75 spike pseudovirus in the same assay as above.
Procedure: as §1

Row | Binder | pseudovirus neutralization IC50 [µg/mL]
25 | B1 | 3.34
26 | B2 | 8.27
27 | B3 | > 10
28 | B4 | > 10
29 | B5 | > 10
30 | B6 | 4.52
31 | B7 | > 10
32 | B8 | > 10
33 | B9 | 1.96
34 | B10 | > 10
35 | B11 | > 10
36 | B12 | > 10

The binders below were run against SARS-CoV-2 Omicron BA.5 spike pseudovirus in the same assay as above.
Procedure: as §1

Row | Binder | pseudovirus neutralization IC50 [µg/mL]
37 | B1 | 0.00399
38 | B2 | 4.3
39 | B3 | > 10
40 | B4 | > 10
41 | B5 | > 10
42 | B6 | > 10
43 | B7 | > 10
44 | B8 | 5.54
45 | B9 | 5.13
46 | B10 | 6.9
47 | B11 | > 10
48 | B12 | > 10

Each binder was assayed against SARS-CoV-2 Omicron BQ.1.1 spike pseudovirus in the same assay as above.
Procedure: as §1

Row | Binder | pseudovirus neutralization IC50 [µg/mL]
49 | B1 | > 10
50 | B2 | 3.05
51 | B3 | > 10
52 | B4 | > 10
53 | B5 | > 10
54 | B6 | > 10
55 | B7 | > 10
56 | B8 | > 10
57 | B9 | > 10
58 | B10 | > 10
59 | B11 | > 10
60 | B12 | > 10

The binders below were run against SARS-CoV-2 Omicron XBB spike pseudovirus in the same assay as above.
Procedure: as §1

Row | Binder | pseudovirus neutralization IC50 [µg/mL]
61 | B1 | > 10
62 | B2 | 3.21
63 | B3 | > 10
64 | B4 | > 10
65 | B5 | > 10
66 | B6 | > 10
67 | B7 | > 10
68 | B8 | > 10
69 | B9 | > 10
70 | B10 | > 10
71 | B11 | > 10
72 | B12 | > 10

What follows are binders tested against SARS-CoV-2 early D614G spike pseudovirus in the same assay as above.
Procedure: as §1

Row | Binder | pseudovirus neutralization IC50 [µg/mL]
73 | B1 | 0.000243
74 | B2 | 7.31
75 | B3 | 0.595
76 | B4 | > 10
77 | B5 | 0.0754
78 | B6 | 8.55
79 | B7 | > 10
80 | B8 | 1.8
81 | B9 | > 10
82 | B10 | 0.154
83 | B11 | 0.479
84 | B12 | > 10
